# The NIST ThermoML archive (doi:10.1021/acs.jced.5b00343)
# Numbers after ± are expanded uncertainties.
# Assay: refractive index (Na D-line) (dimensionless); xn = mol fraction of the nth substance listed
# Details: 101 kPa, Liquid, Standard Abbe refractometry
smiles,measurement,setting,value
CCCCOP(=O)(OCCCC)OCCCC [tributyl phosphate] + CCCCO,refractive index,"303.15 K, x1 = 0.05",1.3978 ± 0.0004
same,refractive index,"303.15 K, x1 = 0.1002",1.4007 ± 0.0004
same,refractive index,"303.15 K, x1 = 0.1503",1.4029 ± 0.0004
same,refractive index,"303.15 K, x1 = 0.202",1.4048 ± 0.0004
same,refractive index,"303.15 K, x1 = 0.2502",1.4063 ± 0.0004
same,refractive index,"303.15 K, x1 = 0.3006",1.4078 ± 0.0004
same,refractive index,"303.15 K, x1 = 0.3502",1.4092 ± 0.0004
same,refractive index,"303.15 K, x1 = 0.4",1.4102 ± 0.0004
same,refractive index,"303.15 K, x1 = 0.4502",1.4115 ± 0.0004
same,refractive index,"303.15 K, x1 = 0.5002",1.4125 ± 0.0004
same,refractive index,"303.15 K, x1 = 0.5506",1.4133 ± 0.0004
same,refractive index,"303.15 K, x1 = 0.6005",1.4142 ± 0.0004
same,refractive index,"303.15 K, x1 = 0.6502",1.4151 ± 0.0004
same,refractive index,"303.15 K, x1 = 0.7002",1.416 ± 0.0004
same,refractive index,"303.15 K, x1 = 0.7493",1.4168 ± 0.0004
same,refractive index,"303.15 K, x1 = 0.8001",1.4176 ± 0.0004
same,refractive index,"303.15 K, x1 = 0.8507",1.4183 ± 0.0004
same,refractive index,"303.15 K, x1 = 0.9009",1.4192 ± 0.0004
same,refractive index,"303.15 K, x1 = 0.9504",1.4201 ± 0.0004
same,refractive index,"303.15 K, x1 = 1",1.421 ± 0.0004
same,refractive index,"308.15 K, x1 = 0.05",1.3958 ± 0.0004
same,refractive index,"308.15 K, x1 = 0.1002",1.3989 ± 0.0004
same,refractive index,"308.15 K, x1 = 0.1503",1.4012 ± 0.0004
same,refractive index,"308.15 K, x1 = 0.202",1.4031 ± 0.0004
same,refractive index,"308.15 K, x1 = 0.2502",1.4045 ± 0.0004
same,refractive index,"308.15 K, x1 = 0.3006",1.4061 ± 0.0004
same,refractive index,"308.15 K, x1 = 0.3502",1.4074 ± 0.0004
same,refractive index,"308.15 K, x1 = 0.4",1.4084 ± 0.0004
same,refractive index,"308.15 K, x1 = 0.4502",1.4097 ± 0.0004
same,refractive index,"308.15 K, x1 = 0.5002",1.4107 ± 0.0004
same,refractive index,"308.15 K, x1 = 0.5506",1.4117 ± 0.0004
same,refractive index,"308.15 K, x1 = 0.6005",1.4125 ± 0.0004
same,refractive index,"308.15 K, x1 = 0.6502",1.4134 ± 0.0004
same,refractive index,"308.15 K, x1 = 0.7002",1.4143 ± 0.0004
same,refractive index,"308.15 K, x1 = 0.7493",1.415 ± 0.0004
same,refractive index,"308.15 K, x1 = 0.8001",1.4158 ± 0.0004
same,refractive index,"308.15 K, x1 = 0.8507",1.4165 ± 0.0004
same,refractive index,"308.15 K, x1 = 0.9009",1.4174 ± 0.0004
same,refractive index,"308.15 K, x1 = 0.9504",1.4182 ± 0.0004
same,refractive index,"308.15 K, x1 = 1",1.419 ± 0.0004
same,refractive index,"313.15 K, x1 = 0.05",1.394 ± 0.0004
same,refractive index,"313.15 K, x1 = 0.1002",1.3972 ± 0.0004
same,refractive index,"313.15 K, x1 = 0.1503",1.3996 ± 0.0004
same,refractive index,"313.15 K, x1 = 0.202",1.4015 ± 0.0004
same,refractive index,"313.15 K, x1 = 0.2502",1.4029 ± 0.0004
same,refractive index,"313.15 K, x1 = 0.3006",1.4045 ± 0.0004
same,refractive index,"313.15 K, x1 = 0.3502",1.4058 ± 0.0004
same,refractive index,"313.15 K, x1 = 0.4",1.4069 ± 0.0004
same,refractive index,"313.15 K, x1 = 0.4502",1.408 ± 0.0004
same,refractive index,"313.15 K, x1 = 0.5002",1.409 ± 0.0004
same,refractive index,"313.15 K, x1 = 0.5506",1.41 ± 0.0004
same,refractive index,"313.15 K, x1 = 0.6005",1.4109 ± 0.0004
same,refractive index,"313.15 K, x1 = 0.6502",1.4117 ± 0.0004
same,refractive index,"313.15 K, x1 = 0.7002",1.4125 ± 0.0004
same,refractive index,"313.15 K, x1 = 0.7493",1.4133 ± 0.0004
same,refractive index,"313.15 K, x1 = 0.8001",1.414 ± 0.0004
same,refractive index,"313.15 K, x1 = 0.8507",1.4148 ± 0.0004
same,refractive index,"313.15 K, x1 = 0.9009",1.4154 ± 0.0004
same,refractive index,"313.15 K, x1 = 0.9504",1.4162 ± 0.0004
same,refractive index,"313.15 K, x1 = 1",1.4171 ± 0.0004
same,refractive index,"318.15 K, x1 = 0.05",1.391 ± 0.0004
same,refractive index,"318.15 K, x1 = 0.1002",1.3944 ± 0.0004
same,refractive index,"318.15 K, x1 = 0.1503",1.3969 ± 0.0004
same,refractive index,"318.15 K, x1 = 0.202",1.3988 ± 0.0004
same,refractive index,"318.15 K, x1 = 0.2502",1.4004 ± 0.0004
same,refractive index,"318.15 K, x1 = 0.3006",1.4019 ± 0.0004
same,refractive index,"318.15 K, x1 = 0.3502",1.4032 ± 0.0004
same,refractive index,"318.15 K, x1 = 0.4",1.4044 ± 0.0004
same,refractive index,"318.15 K, x1 = 0.4502",1.4054 ± 0.0004
same,refractive index,"318.15 K, x1 = 0.5002",1.4065 ± 0.0004
same,refractive index,"318.15 K, x1 = 0.5506",1.4075 ± 0.0004
same,refractive index,"318.15 K, x1 = 0.6005",1.4085 ± 0.0004
same,refractive index,"318.15 K, x1 = 0.6502",1.4093 ± 0.0004
same,refractive index,"318.15 K, x1 = 0.7002",1.4101 ± 0.0004
same,refractive index,"318.15 K, x1 = 0.7493",1.4109 ± 0.0004
same,refractive index,"318.15 K, x1 = 0.8001",1.4117 ± 0.0004
same,refractive index,"318.15 K, x1 = 0.8507",1.4124 ± 0.0004
same,refractive index,"318.15 K, x1 = 0.9009",1.413 ± 0.0004
same,refractive index,"318.15 K, x1 = 0.9504",1.4138 ± 0.0004
same,refractive index,"318.15 K, x1 = 1",1.4146 ± 0.0004
same,refractive index,"323.15 K, x1 = 0.05",1.3887 ± 0.0004
same,refractive index,"323.15 K, x1 = 0.1002",1.3921 ± 0.0004
same,refractive index,"323.15 K, x1 = 0.1503",1.3948 ± 0.0004
same,refractive index,"323.15 K, x1 = 0.202",1.3968 ± 0.0004
same,refractive index,"323.15 K, x1 = 0.2502",1.3984 ± 0.0004
same,refractive index,"323.15 K, x1 = 0.3006",1.3999 ± 0.0004
same,refractive index,"323.15 K, x1 = 0.3502",1.4014 ± 0.0004
same,refractive index,"323.15 K, x1 = 0.4",1.4025 ± 0.0004
same,refractive index,"323.15 K, x1 = 0.4502",1.4036 ± 0.0004
same,refractive index,"323.15 K, x1 = 0.5002",1.4047 ± 0.0004
same,refractive index,"323.15 K, x1 = 0.5506",1.4058 ± 0.0004
same,refractive index,"323.15 K, x1 = 0.6005",1.4068 ± 0.0004
same,refractive index,"323.15 K, x1 = 0.6502",1.4077 ± 0.0004
same,refractive index,"323.15 K, x1 = 0.7002",1.4085 ± 0.0004
same,refractive index,"323.15 K, x1 = 0.7493",1.4093 ± 0.0004
same,refractive index,"323.15 K, x1 = 0.8001",1.4101 ± 0.0004
same,refractive index,"323.15 K, x1 = 0.8507",1.4109 ± 0.0004
same,refractive index,"323.15 K, x1 = 0.9009",1.4116 ± 0.0004
same,refractive index,"323.15 K, x1 = 0.9504",1.4123 ± 0.0004
same,refractive index,"323.15 K, x1 = 1",1.4131 ± 0.0004
